Data taken from article PMC4484626, “Characteristics of oseltamivir-resistant influenza A (H1N1) pdm09 virus during the 2013–2014 influenza season in Mainland China” (Virology Journal, 2015).

Target: NA of A/California/07/2009 (275H) (Influenza A virus (A/California/07/2009(H1N1)), UniProt C3W6G3)
Conditions: read-out: IC50 (nM) / Oseltamivir; fluorogenic substrate of NA-Fluor kit; table prints oseltamivir, tested as carboxylate; reference mean

Compound: CCC(CC)O[C@@H]1C=C(C(=O)O)C[C@H](N)[C@H]1NC(C)=O [Oseltamivir carboxylate]
- IC50: 0.3 nM
